Anti-infective test results gathered from many reports (values: NIAID ChemDB through PubChem).

Common to all: whole-cell or culture tests

Blank or dashed fields: not listed here.

smiles | organism | strain | changes | cell line | read by | conditions | endpoint | dose | value
COC(=O)Nc1nc2ccc(Sc3ccccc3)cc2[nH]1 | Cryptococcus neoformans | IU8698 |  |  |  |  | EC90 |  | 0.014 µg/mL
NC[C@@H]1O[C@H](O[C@H]2[C@@H](O)[C@H](O[C@@H]3[C@@H](O)[C@H](N)C[C@H](N)[C@H]3O[C@H]3O[C@H](CO)[C@@H](O)[C@H](O)[C@H]3N)O[C@@H]2CO)[C@H](N)[C@@H](O)[C@@H]1O | Cryptosporidium parvum |  |  |  |  |  | inhibition | 100 µg/mL | 62%
O=C(O)P(=O)(O)O | Herpes simplex virus 2 | V12500 |  | SIRC | plaque count |  | inhibition | 500 µM | >99.9%
Cc1cn([C@H]2C[C@H](F)[C@@H](CO)O2)c(=O)[nH]c1=O | Adenovirus | TYPE 2 |  | HEL | cytopathic effect |  | EC50 |  | 0.8 µM
CCCCNC(=O)n1c(NC(=O)OC)nc2ccccc21 | Cryptococcus neoformans | ATCC 14116 |  |  |  |  | EC50 |  | 2 µg/mL
Cc1ccnc2c1NC(=O)c1cccnc1N2C1CC1 | HIV-1 |  | RT-K70R L100I | MT-4 |  |  | EC95 |  | 1.5 µM
Nc1nc2c(ncn2COCCO)c(=O)[nH]1 | Adenovirus | TYPE 2 |  | HEL |  |  | EC50 |  | >1000 µM
O=c1c(O)c(-c2ccccc2)oc2cc(O)cc(O)c12 | Rotavirus A | SA-11 |  | VERO |  |  | EC50 |  | >15 µg/mL
O=C(Nc1ncc([N+](=O)[O-])s1)c1ccccc1O | Encephalitozoon intestinalis |  |  | RK-13 |  |  | inhibition | 0.001 µg/mL | 27.2%
OC[C@H]1O[C@H](n2cnc3cc(Cl)c(Cl)cc32)[C@@H](O)[C@H]1O | Reovirus | TYPE 1 |  | HeLa | cytopathic effect |  | EC50 |  | >200 µg/mL
O=c1c(O)c(-c2ccc(O)cc2)oc2cc(O)cc(O)c12 | Rotavirus A | SA-11 |  | VERO |  |  | inhibition | 10 µg/mL | 35%
CO[C@@H]1[C@@H](O[C@@H]2O[C@H](C)[C@@H](O[C@H]3C[C@@](C)(O)[C@@H](O)[C@H](C)O3)[C@H](N(C)C)[C@H]2O)[C@@H](CC=O)C[C@@H](C)[C@@H](O[C@H]2CC[C@H](N(C)C)[C@H](C)O2)/C=C/C=C/C[C@@H](C)OC(=O)C[C@H]1O | Toxoplasma gondii |  |  |  |  |  | EC50 |  | <3 µg/mL
Clc1ccc(COC(Cn2ccnc2)c2ccc(Cl)cc2Cl)c(Cl)c1 | Candida tropicalis | LM 759 |  |  | broth dilution |  | MFC100 |  | 32 µg/mL
OC[C@H]1O[C@@H](n2cnc3c(NC4CCCCCC4)ncnc32)C[C@@H]1O | Bovine herpesvirus 1 | IRB-LA |  | MDBK | cytopathic effect |  | EC50 |  | 50 µM
CCCCC[C@H](O)/C=C/[C@H]1C=CC(=O)[C@@H]1CCCCCCC(=O)O | Herpes simplex virus 1 | KOS |  | HeLa | cytopathic effect |  | EC50 |  | >4 µg/mL
O=C(O)CP(=O)(O)O | Herpes simplex virus 2 | 91075 |  | SIRC | plaque count |  | inhibition | 100 µM | 96%
COc1ccc(C)c(NCc2cnc3nc(N)nc(N)c3c2C)c1 | Encephalitozoon intestinalis |  |  | RK-13 |  |  | inhibition | 0.1 µg/mL | 69.8%
NC(=O)c1ncn([C@@H]2O[C@H](CO)[C@@H](O)[C@H]2O)n1 | Respiratory syncytial virus | LONG |  | HEP-2 | plaque count |  | inhibition | 3.2 µg/mL | 70%
OC[C@@H]1CC[C@H](n2cnc3c(NC4CC4)ncnc32)O1 | Bovine herpesvirus 1 | IRB-LA |  | MDBK | cytopathic effect |  | EC50 |  | 50 µM
Cc1cn([C@@H]2O[C@H](CO)[C@@H](O)[C@@H]2O)c(=O)[nH]c1=O | Cryptosporidium parvum |  |  |  |  |  | inhibition | 50 µg/mL | 90%
CCCSc1ccc2nc(NC(=O)OC)[nH]c2c1 | Encephalitozoon intestinalis |  |  | RK-13 |  |  | inhibition | 1 µg/mL | 87.4%
C[C@H](Cn1cnc2c(N)ncnc21)OCP(=O)(O)O | SIV |  |  | PBMC | p27 / ELISA |  | EC90 |  | 0.24 µM
O=c1[nH]cnc2c1ncn2[C@H]1CC[C@@H](CO)O1 | HIV-1 | Recombinant | RT-M41L A62V S68N G112S M184V | HeLa | luciferase |  | EC50 |  | 0.79 µM
OC[C@@H]1CC[C@H](n2cnc3c(NC4CC4)nc(Cl)nc32)O1 | Bovine herpesvirus 1 | IRB-LA |  | MDBK | cytopathic effect |  | EC50 |  | 50 µM
NC12CC3CC(CC(C3)C1)C2 | Cryptosporidium parvum |  |  |  |  |  | inhibition | 100 µg/mL | 56%
C#C[C@]1(CO)O[C@@H](n2cnc3c(N)nc(F)nc32)CC1O | HIV-2 | ROD9 | K65R Y115F Q151M M184V | MAGIC-5A | β-galactosidase / absorbance |  | EC50 |  | 0.0053 µM
c1ccc([Se][Se]c2ccccc2)cc1 | Candida glabrata | ATCC 10231 |  |  | broth dilution |  | MFC |  | >64 µg/mL
O[C@H]1[C@@H](O)COC(n2cnc3cc(Cl)c(Cl)cc32)[C@@H]1O | Reovirus | TYPE 1 |  | HeLa | cytopathic effect |  | EC50 |  | >300 µg/mL
C=CCc1ccc(O)c(-c2ccc(O)c(CC=C)c2)c1 | Candida albicans | YL 351 |  |  | broth dilution |  | MIC |  | 128 µg/mL
C#CC[C@@H](C(=O)N[C@H](/C=C/C(=O)OCC)C[C@@H]1CCNC1=O)n1cccc(NC(=O)c2cc(C)on2)c1=O | Rhinovirus | Serotype 14 |  | H1-HELA | cytopathic effect / XTT |  | EC50 |  | 0.053 µM
OCCOC([C@H](O)CO)n1cnc2cc(Cl)c(Cl)cc21 | Sindbis virus |  |  | HeLa | cytopathic effect |  | EC50 |  | >200 µg/mL
CCOC(=O)Nc1cc2c(c(N)n1)N=C(c1ccc(OC)cc1)CO2 | Encephalitozoon intestinalis |  |  | RK-13 |  |  | inhibition | 0.01 µg/mL | 17.9%
C[C@H](Cn1cnc2c(N)ncnc21)OCP(=O)(O)O | Sindbis virus |  |  |  | cytopathic effect |  | EC50 |  | >525 µM
OC[C@H]1O[C@@H](n2cnc3cc(Cl)c(Cl)cc32)[C@@H](O)[C@@H]1O | Parainfluenza virus | TYPE 3 |  | HeLa | cytopathic effect |  | EC50 |  | >200 µg/mL
Nc1ncnc2c1ncn2[C@H]1C[C@H](O)[C@@H](CO)O1 | Bovine herpesvirus 1 | IRB-LA |  | MDBK | cytopathic effect |  | EC50 |  | >50 µM
OC[C@H]1O[C@@H](n2cnc3cc(Cl)c(Cl)cc32)[C@H](O)[C@@H]1O | Reovirus | TYPE 1 |  | HeLa | cytopathic effect |  | EC50 |  | >10 µg/mL
CC(C)(CO)C(=O)SCCOP(=O)(NCc1ccccc1)OC[C@H]1O[C@@H](n2cnc3c(=O)[nH]c(N)nc32)[C@](C)(O)[C@@H]1O | Hepatitis C virus | GT1a | Y93N | Replicon cells | replicon |  | fold resistance |  | 1.01
CCCCCCCCCCCCCCCCCCCCCCOCC(C)(COCCCCCCCCCCCCCCCCCCCCCC)CO[C@]1(C(=O)O)C[C@H](OS(=O)(=O)O)[C@@H](NC(C)=O)[C@H]([C@H](OS(=O)(=O)O)[C@@H](COS(=O)(=O)O)OS(=O)(=O)O)O1 | Respiratory syncytial virus | K686 |  | HEP-2 | plaque count |  | EC50 |  | 0.12 µM
Nc1cc(OCCOCP(=O)(O)O)nc(N)n1 | Sindbis virus |  |  |  | cytopathic effect |  | EC50 |  | >190 µM
CO[C@H]1O[C@@H](n2ccc(=O)[nH]c2=O)C[C@@H]1N=[N+]=[N-] | Cryptosporidium parvum |  |  |  |  |  | inhibition | 100 µg/mL | 9%
COc1cc(NCc2cnc3nc(N)nc(N)c3c2C)cc(OC)c1 | Encephalitozoon intestinalis |  |  | RK-13 |  |  | inhibition | 0.01 µg/mL | 56.6%
c1ccc2[nH]c(-c3cscn3)nc2c1 | Cryptococcus neoformans | IU4 |  |  |  |  | EC50 |  | <4 µg/mL
CC[C@H]1OC(=O)[C@H](C)[C@@H](O[C@H]2C[C@@](C)(OC)[C@@H](O)[C@H](C)O2)[C@H](C)[C@@H](O[C@@H]2O[C@H](C)C[C@H](N(C)C)[C@H]2O)[C@](C)(OC)C[C@@H](C)C(=O)[C@H](C)[C@@H](O)[C@]1(C)O | Mycobacterium massiliense | X21 |  |  | broth dilution |  | MIC |  | 0.25 µg/mL
Nc1ncnc2c1ncn2[C@@H]1O[C@H](COP(=O)(O)OS(=O)(=O)O)[C@@H](O)[C@H]1O | Herpes simplex virus 1 | KOS |  | HeLa | cytopathic effect |  | EC50 |  | >1000 µM
O=[N+]([O-])c1cc(Cl)c(Cl)cc1[N+](=O)[O-] | Sindbis virus |  |  | HeLa | cytopathic effect |  | EC50 |  | >4 µg/mL
Clc1ccc([Se][Se]c2ccc(Cl)cc2)cc1 | Candida dubliniensis |  |  |  | broth dilution |  | MIC |  | >64 µg/mL
C[C@H](COc1cc(N)nc(N)n1)OCP(=O)(O)O | Reovirus | TYPE 1 |  |  | cytopathic effect |  | EC50 |  | >180 µM
Cc1cn([C@H]2C[C@H](N=[N+]=[N-])[C@@H](CO)O2)c(=O)[nH]c1=O | HIV-1 | Recombinant | RT-M41L V118I M184V | HeLa | luciferase |  | fold resistance |  | 0.4
Nc1ccn(C[C@@H](CO)OCP(=O)(O)O)c(=O)n1 | Adenovirus | TYPE 2 |  | HEL | PCR |  | EC50 |  | 3.1 µM
NC[C@@H]1O[C@H](O[C@H]2[C@@H](O)[C@H](O[C@@H]3[C@@H](O)[C@H](N)C[C@H](N)[C@H]3O[C@H]3O[C@H](CO)[C@@H](O)[C@H](O)[C@H]3N)O[C@@H]2CO)[C@H](N)[C@@H](O)[C@@H]1O | Herpes simplex virus 1 | KOS |  | HeLa | cytopathic effect |  | EC50 |  | >200 µg/mL
Nc1cc(OC[C@@H](CO)OCP(=O)(O)O)nc(N)n1 | Adenovirus | TYPE 2 |  | HEL |  |  | EC50 |  | 14 µM
CN(C)c1cc(NC(=O)CNC(C)(C)C)c(O)c2c1C[C@H]1C[C@H]3[C@H](N(C)C)C(=O)C(C(N)=O)=C(O)[C@@]3(O)C(=O)C1=C2O | Mycobacterium massiliense | X13 |  |  | broth dilution |  | MIC |  | 2 µg/mL
O[C@@H]1[C@@H](OCc2ccccc2)[C@@H](COCc2ccccc2)O[C@H]1n1cnc2cc(Cl)c(Cl)cc21 | Parainfluenza virus | TYPE 3 |  | HeLa | cytopathic effect |  | EC50 |  | >10 µg/mL
CO[C@H]1[C@@H](OC(=O)/C=C/C=C/C=C/C=C/C(=O)O)CC[C@@]2(CO2)[C@@H]1[C@@]1(C)O[C@@H]1CC=C(C)C | Encephalitozoon intestinalis |  |  | RK-13 |  |  | inhibition | 0.0005 µg/mL | 62.9%
CC1OC(n2ccc(NC(=O)c3ccc(NC(=O)C(C)(N)CO)cc3)nc2=O)CCC1OC1OC(C)C(N(C)C)C(O)C1O | Herpes simplex virus 1 | KOS |  | HeLa | cytopathic effect |  | EC50 |  | 16 µM
OC[C@H]1O[C@@H](n2cnc3c(NC4CCCC4)cc(Cl)nc32)[C@H](O)[C@@H]1O | Maedi-visna virus | KV1772 |  | Sheep chondrocytes G81092 | cytopathic effect |  | EC50 |  | 0.5 µM
COc1cc([C@@H]2c3cc4c(cc3[C@@H](O[C@@H]3O[C@@H]5CO[C@@H](C)O[C@H]5[C@H](O)[C@H]3O)[C@H]3COC(=O)[C@H]23)OCO4)cc(OC)c1O | Pneumocystis carinii |  |  |  |  | 7 d | inhibition | 1 µg/mL | 42%
Nc1nc2c(ncn2COCCO)c(=O)[nH]1 | Cryptosporidium parvum |  |  |  |  |  | inhibition | 50 µg/mL | 0%
C[C@H](Cn1cnc2c(N)ncnc21)OCP(=O)(O)O | HIV-1 | Recombinant | RT-V118I M184V | HeLa | luciferase |  | EC50 |  | 0.5555 µM
CCCCCCCCCCCCCCCC(=O)O | Herpes simplex virus 1 | KOS |  | HeLa | cytopathic effect |  | EC50 |  | >200 µg/mL
Nc1ncnc2c1ncn2[C@H]1CC[C@@H](CO)O1 | Maedi-visna virus | KV1772 |  | Sheep chondrocytes G81092 | cytopathic effect |  | EC50 |  | 0.41 µM
O=C(O)P(=O)(O)O | Adenovirus | TYPE 2 |  | HEL |  |  | EC50 |  | >1000 µM
O=C(Nc1ccccc1)c1c(O)[nH]c(=S)[nH]c1=O | Epstein-Barr virus |  |  | Akata-Bx1 | PCR |  | EC50 |  | 42.76 µM
OC[C@H]1O[C@@H](n2cnc3c(NC4CC4)ncnc32)[C@H](O)[C@@H]1O | Bovine herpesvirus 1 | IRB-LA |  | MDBK | cytopathic effect |  | EC50 |  | >50 µM
CCOC(=O)Nc1cc2c(c(N)n1)N=C(c1ccc3ccccc3c1)CS2 | Encephalitozoon intestinalis |  |  | RK-13 |  |  | inhibition | 0.001 µg/mL | 6.5%

4 of the rows above, restated:

Cc1cn([C@H]2C[C@H](F)[C@@H](CO)O2)c(=O)[nH]c1=O ; organism: Adenovirus ; strain: TYPE 2 ; cell line: HEL ; read by: cytopathic effect ; endpoint: EC50 ; value: 0.8 µM
CCCSc1ccc2nc(NC(=O)OC)[nH]c2c1 ; organism: Encephalitozoon intestinalis ; cell line: RK-13 ; endpoint: inhibition ; dose: 1 µg/mL ; value: 87.4%
NC(=O)c1ncn([C@@H]2O[C@H](CO)[C@@H](O)[C@H]2O)n1 ; organism: Respiratory syncytial virus ; strain: LONG ; cell line: HEP-2 ; read by: plaque count ; endpoint: inhibition ; dose: 3.2 µg/mL ; value: 70%
O=[N+]([O-])c1cc(Cl)c(Cl)cc1[N+](=O)[O-] ; organism: Sindbis virus ; cell line: HeLa ; read by: cytopathic effect ; endpoint: EC50 ; value: >4 µg/mL

A number after MIC or MFC names an inhibition level or a share of isolates. Inhibition is in % at the dose shown (toxicity tests: loss of growth or viability). Conditions beyond the fields shown may differ between rows. ECn is the concentration giving n% inhibition of infection, replication or growth. Fold resistance has wild type as its base.